Assay results: paper PMC10975748, “Report from the 29th Meeting on Toxinology, “Toxins: From the Wild to the Lab”, Organized by the French Society of Toxinology on 30 November–1 December 2023” (Toxins, 2024)

Test system: anti-TTX monoclonal antibody
Assay: Cross-reactivity factors, magnetic bead-based immunoassay
Format: binding

Substance | cross-reactivity (cross-reactivity factors, CRFs)
11-deoxyTTX | highest cross-reactivity
6,11-dideoxyTTX | lower
11-norTTX-6(S)-ol | highest cross-reactivity
